We go through 9 compounds from patent publication US6495580B1, “Compounds, compositions and methods for treating or preventing pneumovirus infection and associated diseases” (ViroPharma Incorporated, priority 1998, dated 2002).

Bounds are passed on as bounds.

The test system of the data set is normal cells. Nature of the data set: MTT cytotoxicity assay. In kind it is cell-based. As to conditions: selective index, CC75/IC50 (human RSV subtype A). The protocol:
This assay measures cell viability, and therefore cytotoxicity, by quantitatively detecting the in situ reduction of 3-(4,5-dimethylthiazol-2-yl)-2,5-diphenyltetrazolium bromide (MTT) by viable cells. Cells are seeded in 96-well plates in DMEM containing 5% FBS at a density of 4×10^3 cells per well. After incubation for 4 hours at 37° C. and 5% CO2, 2-fold serial dilutions of compound in 1% DMSO (or solvent alone) are added to quadruplicate wells and the plates are incubated for an additional 68 hours at 37° C. and 5% CO2, which is equivalent to 3 to 4 cell doublings. The culture medium is removed, and the cells are treated with 1 mg/ml of MTT in phosphate-buffered saline, pH 7.2 for 4 hours at 37° C. and 5% CO2. After removal of the unreduced MTT, the reduced blue formazan crystals produced by the viable cells are solubilized by the addition of 0.04N HCl in isopropanol. The optical density at 570 nm (OD570) of each well is read using a suitable microplate reader. Cell viability is expressed as the percentage of optical density for compound-treated cells relative to the optical density of solvent alone-treated control wells. The highest compound concentration resulting in an optical density of≧75% of the control is represented as the cellular cytotoxicity value (CC75).

For `Nc1nnnn1N=Cc1ccc(O)c(C(c2ccc(O)cc2)c2cc(C=Nn3nnnc3N)ccc2O)c1` (stereo not drawn) [Example 1, 5,5′-Bis[1-(((5-amino-1H-tetrazolyl)imino)methyl)]2,2′,4″-methylidynetrisphenol], the SI is >12,500.
Consider `COc1ccc(C(c2ccc(C=Nn3nnnc3N)cc2O)c2ccc(C=Nn3nnnc3N)cc2O)cc1` (stereo not drawn) [Example 2, 5,5′-Bis[1-(((5-amino-1H-tetrazolyl)imino)methyl)]-4″-methoxyphenyl-2,2′-benzylidenebisphenol], for which the SI is >150,000.
The figure for `Nc1ncnn1N=Cc1ccc(O)c(C(c2ccc(O)cc2)c2cc(C=Nn3ncnc3N)ccc2O)c1` (stereo not drawn) [Example 3, 5,5′-Bis[1-(((5-amino-1H-1,2,4 triazolyl)imino)methyl)]-2,2′, 4″t-methylidyne trisphenol] is 250; for `Nc1nncn1N=Cc1ccc(O)c(C(c2ccc(O)cc2)c2cc(C=Nn3cnnc3N)ccc2O)c1` (stereo not drawn) [Example 4, 5,5′-Bis[4-(((3-amino-4H-1,2,4-triazolyl)imino)methyl)]-2,2′,4″-methylidyne trisphenol] it is 171.
On to `Nc1nnn(N=Cc2ccc(C(c3ccc(O)cc3)c3ccc(C=Nn4nnc(N)n4)cc3O)c(O)c2)n1` (stereo not drawn) [Example 5, 5,5′-Bis[2-(((5-amino-2H-tetrazolyl)imino)methyl)]-2,2′,4″-methylidynetrisphenol], for which the SI was over 556.
As for `Cc1nnnn1/N=C/c1ccc(O)c(C(c2ccc(O)cc2)c2cc(/C=N/n3nnnc3C)ccc2O)c1` [Example 6, 5,5′-Bis[1-(((5-methyl-1H-tetrazolyl)imino)methyl)]-2,2′,4″-methylidynetrisphenol], the SI is 3,100.
Regarding `Nc1nnnn1N=Cc1ccc(C(c2ccccc2)c2ccc(C=Nn3nnnc3N)cc2O)c(O)c1` (stereo not drawn) [Example 7, 5,5′-Bis[1-(((5-amino-1H-tetrazolyl)imino)methyl)]-2,2′-benzylidenebisphenol], the SI is recorded as >6,250.
`Nc1nnnn1N=Cc1ccc(O)c(Cc2cc(C=Nn3nnnc3N)ccc2O)c1` [Example 8] came in with an SI of 25.
With `NC(=O)c1ncn([C@@H]2O[C@H](CO)[C@@H](O)[C@H]2O)n1` [Ribavirin, 1-beta-D-ribofuranosyl-1H-1,2,4-triazole-3-carboxamide, reference compound], the SI is under 1.
